A mixed list of measured activities; the numbers were collected in NIAID ChemDB.

All rows: tests in culture

Conditions beyond the fields shown may differ between rows. Percent inhibition refers to the dose given; in toxicity tests it is the harm to the cells. Zones are inhibition diameters on agar. MIC50, MIC90 and the like: level of inhibition, or share of isolates inhibited. ECn is the concentration giving n% inhibition of infection, replication or growth. Blank or dashed fields: not listed here.

structure	species	tested at	setting	read by	strain or isolate	measure	value
C[C@@H](c1ncncc1F)[C@](O)(Cn1cncn1)c1ccc(F)cc1F	Candida spp.			broth dilution	Fluconazole-resistant	MIC90	>4 µg/mL
Clc1ccccc1C(c1ccccc1)(c1ccccc1)n1ccnc1	Candida glabrata		pH 7	broth dilution	40 isolates	MIC	0.125 µg/mL
Clc1ccc(C(c2ccccc2)n2nnc3ccccc32)cc1	Candida dubliniensis			agar		MIC90	>256 µg/mL
O=C(NN=Cc1ccc(Br)cc1)c1snnc1C(F)(F)F	Candida rugosa	150 µg/mL		agar diffusion / agar	NCIM 3462	zone	0 mm
COc1ccc(C(c2ccc(OC)cc2)n2ccnc2)cc1	Candida parapsilosis			broth dilution		MFC	>256 µg/mL
O=C(NN=Cc1ccc(O)cc1)c1snnc1C(F)(F)F	Candida rugosa	150 µg/mL		agar diffusion / agar	NCIM 3462	zone	0 mm
O=[N+]([O-])c1ccc(/C=N\O)cc1	Candida lipolytica					MIC100	3010 µM
CC(=NNC(=O)c1snnc1C(F)(F)F)c1ccccc1	Candida rugosa	150 µg/mL		agar diffusion / agar	NCIM 3462	zone	0 mm
c1ccc(C(c2ccccc2)n2cnc3ccccc32)cc1	Candida dubliniensis			broth dilution		MFC	>256 µg/mL
COc1ccc(N2C(=O)CC(C)C2=O)cc1	Candida lusitaniae			broth dilution / turbidity	CCC 134-2000	MIC	125 µg/mL
CC(C)(O)c1cn(-c2ccccc2)nn1	Candida parapsilosis	2048 µg/mL		broth dilution	URM 4607	inhibition	0%
CCCCCOc1ccc(-c2cc(-c3ccc(C(=O)N[C@H]4C[C@@H](O)[C@@H](O)NC(=O)[C@@H]5[C@@H](O)[C@@H](C)CN5C(=O)[C@H]([C@H](O)CC(N)=O)NC(=O)[C@H]([C@H](O)[C@@H](O)c5ccc(O)c(OS(=O)(=O)O)c5)NC(=O)[C@@H]5C[C@@H](O)CN5C(=O)[C@H]([C@@H](C)O)NC4=O)cc3)no2)cc1	Candida spp.			broth dilution	Fluconazole-resistant	MIC50	0.016 µg/mL
CC(=O)OC[C@H]1O[C@@H](O[C@@H]2[C@@H](N=[N+]=[N-])[C@H](O)[C@H](O)[C@H]3OC(C)(C)O[C@H]32)[C@H](OC(C)=O)[C@@H](OC(C)=O)[C@H]1OC(C)=O	Candida tropicalis	7.8 µg/mL		broth dilution / turbidity	C 131	inhibition	0%
O=[N+]([O-])c1cccc(/C=N\O)c1	Candida lipolytica					MIC	3010 µM
Nc1[nH]c(=O)ncc1F	Candida glabrata		pH 6	broth dilution	40 isolates	MIC	0.125 µg/mL
Nc1ncccc1-c1cc(Cc2ccc(COc3ccccn3)cc2)no1	Candida glabrata			broth dilution	8658	MIC	0.03 µg/mL
OC(CCn1ccnc1)c1cccc(C(O)c2ccc(Cl)cc2)c1	Candida kefyr			broth dilution	RTCC 1019	MIC	8 µg/mL
CC1CC(=O)N(CCc2ccccc2)C1=O	Candida lusitaniae			broth dilution / turbidity	CCC 134-2000	MIC	125 µg/mL
CC(C)=NNC(=O)c1snnc1C(F)(F)F	Candida rugosa	150 µg/mL		agar diffusion / agar	NCIM 3462	zone	0 mm
OC(CCn1ccnc1)c1ccc(Br)cc1	Candida guilliermondii			broth dilution	RTCC 1377	MIC	>64 µg/mL
O/N=C\c1ccccc1O	Candida lipolytica					MIC100	3600 µM
O=C(c1ccccc1)C(c1ccccc1)n1cncn1	Candida dubliniensis			broth dilution		MFC	256 µg/mL
Nc1scc2c1c(=O)oc1ccc3ccccc3c12	Candida guilliermondii			broth dilution		MIC	128 µg/mL
O=C(c1ccccc1)C(c1ccccc1)n1ccnc1	Candida parapsilosis			agar		MIC90	>256 µg/mL
CC(C)(O)c1cn(-c2cccc3ccccc23)nn1	Candida tropicalis	2048 µg/mL			URM 916	inhibition	0%
O/N=C\c1ccc(F)cc1	Candida lipolytica					MIC100	7200 µM
CC(=O)N1CCN(c2ccc(OC[C@H]3CO[C@](Cn4ccnc4)(c4ccc(Cl)cc4Cl)O3)cc2)CC1	Candida glabrata		pH 4	broth dilution	40 isolates	EC90	>16 µg/mL
CC1CC(=O)N(c2ccccc2)C1=O	Candida lusitaniae			broth dilution / turbidity	CCC 134-2000	MIC	125 µg/mL
NCCCC[C@H](NC(=O)[C@H](Cc1c[nH]c2ccccc12)NC(=O)[C@H](CCCCN)NC(=O)[C@@H](N)CCCCN)C(=O)O	Candida albicans	100 µM			ATCC 10231	inhibition	2%
CCOc1ccc2nc3cc(N=C4NC(=O)/C(=C\c5ccc([N+](=O)[O-])o5)S4)ccc3c(N)c2c1	Candida kefyr			broth dilution	ATCC 8614	MFC	125 µg/mL
CC(C)(O)c1cn(-c2ccc3ccccc3c2)nn1	Candida albicans	2048 µg/mL		broth dilution	URM 4990	inhibition	0%
C[C@@H]1C(=O)N(c2ccccc2)C(=O)[C@@H]1C	Candida lusitaniae			broth dilution / turbidity	CCC 134-2000	MIC	62.5 µg/mL
O=C(NN=Cc1ccc(Cl)cc1)c1snnc1C(F)(F)F	Candida rugosa	100 µg/mL		agar diffusion / agar	NCIM 3462	zone	0 mm
O/N=C\c1cccs1	Candida famata					MIC	3930 µM
O=C(CCn1ccnc1)c1cccc(C(O)c2ccc(Cl)cc2)c1	Candida guilliermondii			broth dilution	RTCC1248	MIC	16 µg/mL
CC[C@@H]([C@H](C)O)n1ncn(-c2ccc(N3CCN(c4ccc(OC[C@@H]5CO[C@@](Cn6cncn6)(c6ccc(F)cc6F)C5)cc4)CC3)cc2)c1=O	Candida glabrata		pH 5	broth dilution	40 isolates	EC90	>16 µg/mL
O=C1S/C(=C\c2ccoc2)C(=O)N1CC(O)(Cn1nccn1)c1ccc(F)cc1F	Candida colliculosa				Fluconazole-resistant 100	MIC50	2.31 µg/mL
O=C1C2=C(OC(CI)C2)C(=O)c2ccccc21	Candida parapsilosis			broth dilution	Clinical isolate	MIC	16 µg/mL
C=CCc1ccc(OC)c(OC)c1	Candida parapsilosis			turbidity	2615	MIC90	340 µg/mL
OC(CCn1ccnc1)c1cccc(C(O)c2ccc(Cl)c(Cl)c2)c1	Candida guilliermondii			broth dilution	RTCC1248	MIC	>64 µg/mL
O/N=C\c1ccccc1Cl	Candida famata					MIC100	1420 µM
Cc1ccc(-n2cc(C(C)(C)O)nn2)cc1C	Candida parapsilosis	2048 µg/mL		broth dilution	URM 4889	inhibition	0%
CCC(C)CC(C)CCCCCCCCC(=O)N[C@H]1C[C@@H](O)[C@H](NCCN)NC(=O)[C@@H]2[C@@H](O)CCN2C(=O)[C@H]([C@H](O)CCN)NC(=O)[C@H]([C@H](O)[C@@H](O)c2ccc(O)cc2)NC(=O)[C@@H]2C[C@@H](O)CN2C(=O)[C@H]([C@@H](C)O)NC1=O	Candida glabrata			broth dilution	8653	MIC	4 µg/mL

Repeating the final 4 entries:

structure,species,tested at,setting,read by,strain or isolate,measure,value
OC(CCn1ccnc1)c1cccc(C(O)c2ccc(Cl)c(Cl)c2)c1,Candida guilliermondii,,,broth dilution,RTCC1248,MIC,>64 µg/mL
O/N=C\c1ccccc1Cl,Candida famata,,,,,MIC100,1420 µM
Cc1ccc(-n2cc(C(C)(C)O)nn2)cc1C,Candida parapsilosis,2048 µg/mL,,broth dilution,URM 4889,inhibition,0%
CCC(C)CC(C)CCCCCCCCC(=O)N[C@H]1C[C@@H](O)[C@H](NCCN)NC(=O)[C@@H]2[C@@H](O)CCN2C(=O)[C@H]([C@H](O)CCN)NC(=O)[C@H]([C@H](O)[C@@H](O)c2ccc(O)cc2)NC(=O)[C@@H]2C[C@@H](O)CN2C(=O)[C@H]([C@@H](C)O)NC1=O,Candida glabrata,,,broth dilution,8653,MIC,4 µg/mL